Measured values from several laboratories, pooled; numbers as filed in NIAID ChemDB.

All rows: tests in culture; organism: Mycobacterium tuberculosis

Percent inhibition refers to the dose given; in toxicity tests it is the harm to the cells.

smiles | strain or isolate | method | measure | dose | value
COC(=O)c1ccccc1NC(=O)CC(C)=O | H37Rv | - | MIC | - | >100 µg/mL
COc1ccc(/C=C/C(=O)c2c(O)cccc2OC)cc1 | - | - | inhibition | 12.5 µg/mL | 75%
COc1cc2c(c3[nH]cc(C(=O)O)c(=O)c13)NC(=O)CS2 | H37Rv | - | inhibition | 6.25 µg/mL | -11%
COc1cccc(OP(=O)(Oc2cccc(OC)c2)Oc2cccc(OC)c2)c1 | H37Rv | - | MIC | - | >100 µg/mL
CC(C)=CCC/C(C)=C/CNCCNCc1cccc2ccccc12 | - | - | MIC | - | 50 µM
NC(=O)OCCCl | H37Rv | - | MIC | - | >100 µg/mL
CC[C@H]1OC(=O)[C@H](C)[C@@H](O[C@H]2C[C@@](C)(OC)[C@@H](O)[C@H](C)O2)[C@H](C)[C@@H](O[C@@H]2O[C@H](C)C[C@H](N(C)C)[C@H]2O)[C@](C)(OC)C[C@@H](C)C(=O)[C@H](C)[C@@H](O)[C@]1(C)O | ATCC35838 | - | MBC | - | >8 µg/mL
O=C(O)CCc1ccc(O)cc1O | H37Rv | - | MIC | - | >100 µg/mL
CC1=CCC[C@H]2[C@](C)(Cc3cc(O)ccc3O)[C@@H](C)CC[C@]12C | H37Rv | BACTEC | inhibition | 12.5 µg/mL | 25%
Oc1ccc(CCNCCN[C@@H](c2ccccc2)[C@H](O)c2ccccc2)cc1O | - | - | MIC | - | 50 µM
O=C(N/N=C/c1ccccc1Cl)C(O)C(O)C(O)C(O)CO | H37Rv | BACTEC | MIC | - | ≥12.5 µg/mL
CC(NCCNCc1ccccc1F)C12CC3CC(CC(C3)C1)C2 | - | - | MIC | - | 50 µM
CO[C@H]1/C=C/O[C@@]2(C)Oc3c(C)c(O)c4c(O)c(c(/C=N/N5CCN(C/C=C/c6ccccc6)CC5)c(O)c4c3C2=O)NC(=O)/C(C)=C\C=C\[C@H](C)[C@H](O)[C@@H](C)[C@@H](O)[C@@H](C)[C@H](OC(C)=O)[C@@H]1C | 9 (rifampin-resistant) | - | MBC | - | 0.1 µg/mL
CN[C@@H]1[C@H](O[C@H]2[C@H](O[C@H]3[C@H](O)[C@@H](O)[C@H](N=C(N)N)[C@@H](O)[C@@H]3N=C(N)N)O[C@@H](C)[C@]2(O)C=O)O[C@@H](CO)[C@H](O)[C@H]1O | TN2508 (001/16) | - | MIC | - | >2 µg/mL
Clc1ccc2c(n1)Sc1c(Cl)nc(Cl)nc1N2 | H37Rv | BACTEC | MIC bound | - | >12.5 µg/mL
OC1(C#CC2(O)CCCCC2)CCCCC1 | H37Rv | - | MIC | - | >100 µg/mL
Nc1ncccc1/C=C/C(=O)c1cc(Cl)ccc1O | - | - | inhibition | 12.5 µg/mL | 0%
NS(=O)(=O)c1cccs1 | H37Rv | - | MIC | - | 100 µg/mL
c1ccc(C(CCNCCN2CCCC3CCCCC32)c2ccccc2)cc1 | - | - | MIC | - | 12.5 µM
CC1CC(N)=NC1C(=O)NCCC#N.Cl | H37Rv | BACTEC | inhibition | 12.5 µg/mL | 30%
CO[C@H]1/C=C/O[C@@]2(C)Oc3c(C)c(O)c4c(O)c(c(/C=N/N5CCN(C)CC5)c(O)c4c3C2=O)NC(=O)/C(C)=C\C=C\[C@H](C)[C@H](O)[C@@H](C)[C@@H](O)[C@@H](C)[C@H](OC(C)=O)[C@@H]1C | TN987 | - | MIC | - | >32 µg/mL
O=C(O)C1=C/C(=C(\c2ccccc2)c2cc(C(=O)[O-])c([O-])c3ccccc23)c2ccccc2C1=O.[Na+].[Na+] | H37Rv | BACTEC | MIC bound | - | >12.5 µg/mL
C[C@H]1C[C@H](N)CN1c1cc2c(cc1F)c(=O)c(C(=O)O)cn2-c1ccc(F)cc1F | Drug-resistant | - | MIC90 | - | 8 µg/mL
O=C(/C=C/c1ccccc1)c1ccc(Cl)cc1O | H37Rv | - | EC50 | - | <12.5 µg/mL
CO[C@H]1/C=C/O[C@@]2(C)Oc3c(C)c(O)c4c(=O)c(c5oc6cc(N7CCN(C(C)C)CC7)cc(=O)c6nc5c4c3=C2O)NC(=O)/C(C)=C\C=C\[C@H](C)[C@H](O)[C@@H](C)[C@@H](O)[C@@H](C)[C@H](OC(C)=O)[C@@H]1C | 31 (rifampin-resistant) | - | MBC | - | 0.4 µg/mL
O=c1cc(-c2cccc(-c3ccc4c(=O)cc(-c5ccccc5)oc4c3)c2)oc2ccccc12 | - | - | EC50 | - | >12.5 µg/mL
CCOC(=O)Nc1cc(NN)c([N+](=O)[O-])c(NC(=O)OCC)n1 | H37Rv | - | inhibition | 12.5 µg/mL | 0%
c1cc[n+](CCCCC[n+]2ccccc2)cc1 | H37Rv | - | MIC | - | >100 µg/mL
CC(C)c1ccc2c(c1)CC[C@H]1[C@](C)(CNCCNCCO)CCC[C@]21C | - | - | MIC | - | 25 µM
NC1CCN(c2c(F)cc3c(=O)c(C(=O)O)cn(C4CC4)c3c2Cl)C1 | ATCC 35830 | - | MBC | - | 0.125 µg/mL
CC(C)c1ccc2c(c1)CC[C@H]1[C@](C)(CNCCNCc3cccc4ccccc34)CCC[C@]21C | - | - | MIC | - | 50 µM
O=Nc1sc(=S)n(C2CCCCC2)c1O | H37Rv | BACTEC | inhibition | 12.8 µg/mL | 11%
CCCCCCCCCCCNCCNCc1cc(OC)c(OC)c(OC)c1 | - | - | MIC | - | 50 µM
CCOc1cc(C)cc(C)c1N(CC)C(=O)CCC(=O)O | H37Rv | - | MIC | - | 100 µg/mL
CCCCC(CC)CN1CN(CC(CC)CCCC)CC(C)(NCCN[C@H](CO)CC(C)C)C1 | - | - | MIC | - | 25 µM
CCOC(=O)Nc1cc(N(C)/N=C/c2ccccc2)c([N+](=O)[O-])c(Cl)n1 | H37Rv | - | EC50 | - | >12.5 µg/mL
S=C(S)NCC1CCC(CNC(=S)S)CC1 | H37Rv | BACTEC | inhibition | 128 µg/mL | 99%
CC(CNCCNCCC(c1ccccc1)c1ccccc1)c1ccccc1 | - | - | MIC | - | 50 µM
CC1=NN(c2ccccc2)C(=O)C1=Nc1c(C)[nH]n(-c2ccccc2)c1=O | H37Rv | BACTEC | inhibition | 12.8 µg/mL | 25%
Nc1cc([As](=O)([O-])O)ccc1OCCO.[Na+] | H37Rv | - | MIC | - | >100 µg/mL
CC(=O)Oc1ccc([C@@H]2CC(=O)c3c(cc(OC(C)=O)c(-c4c(OC(C)=O)cc5c(c4OC(C)=O)C(=O)C[C@@H](c4ccc(OC(C)=O)cc4)O5)c3OC(C)=O)O2)cc1 | - | - | EC50 | - | >12.5 µg/mL
O=[N+]([O-])c1ccccc1S(=O)(=O)c1ccc(Cl)cc1 | H37Rv | resazurin | MIC bound | - | >6.25 µg/mL
CN(C)c1ccc(S)cc1 | H37Rv | - | MIC | - | >100 µg/mL
CCN1CC2(COC)C(O)CC(OC)C34C5CC6(O)C(OC)CC(O)(C5C6O)C(C(OC)C23)C14.Cl | H37Rv | BACTEC | inhibition | 12.5 µg/mL | -9%
Nc1ccc2cc(S(=O)(=O)O)cc(O)c2c1 | H37Rv | - | MIC | - | 100 µg/mL
CC(N=c1cc2n(-c3ccc(Cl)cc3)c3ccccc3nc-2cc1Nc1ccc(Cl)cc1)c1ccccc1 | H37Rv | BACTEC | MIC bound | - | ≤12.5 µg/mL
CCOC(=O)Nc1cc(NCCc2ccccc2)c(N)c(N)n1 | H37Rv | - | EC50 | - | <12.5 µg/mL
O=C(/C=C/c1ccccc1)c1cc(Br)ccc1O | - | - | EC50 | - | <12.5 µg/mL
O=C(O)CSc1c(O)c(SCC(=O)O)c(SCC(=O)O)c(O)c1SCC(=O)O | H37Rv | - | MIC | - | >100 µg/mL
C=CCNc1nc(NC(=O)OCC)cc(NC(=O)OCC)c1[N+](=O)[O-] | H37Rv | - | inhibition | 12.5 µg/mL | 0%
O=C(Nc1cccc2c1C(=O)c1cccc(NC(=O)c3ccc(C(=O)Nc4cccc5c4C(=O)c4cccc(NC(=O)c6ccccc6)c4C5=O)cc3)c1C2=O)c1ccccc1 | H37Rv | BACTEC | MIC bound | - | >12.5 µg/mL
COc1ccc(CNCCNCCCCc2ccccc2)c(OC)c1 | - | - | MIC | - | 50 µM
Cc1cccc2c(=O)c3cccc([C@@H](C)C(=O)O)c3oc12 | H37Rv | BACTEC | MIC bound | - | >12.5 µg/mL
Br.Cc1c(-c2c(C)n(C)n(C)c2=O)c(=O)n(C)n1C | H37Rv | - | MIC | - | >100 µg/mL
C=CCN(CCNCCC(c1ccccc1)c1ccccc1)C1CCCC1 | - | - | MIC | - | 25 µM
O=C1C=CC(=O)C(Nc2cccc(O)c2)=C1 | H37Rv | - | MIC | - | >100 µg/mL
C[C@H](NCCNCCc1ccc(Cl)cc1Cl)C1CCCCC1 | - | - | MIC | - | 50 µM
COc1ccccc1CCNCCNC(C)(C)CC(C)(C)C | - | - | MIC | - | 50 µM
S=C1N(c2ccc(Cl)cc2)C2=C(N=Nc3ccccc3)C(=Nc3ccccc3S2)N1c1ccccn1 | H37Rv | BACTEC | MIC | - | ≥12.5 µg/mL
Oc1cc(-c2ccccc2)c(O)cc1-c1ccccc1 | H37Rv | - | MIC | - | >100 µg/mL
CC1CCC(NCCNC2CCCCCCC2)CC1 | - | - | MIC | - | 50 µM
COc1cc(C)c2c(=O)c3c(oc2c1)C(=O)c1c(O)c(OC)cc(O)c1C3=O | KM-R | - | MIC | - | 12.5 µg/mL
NCC[C@H](O)C(=O)N[C@@H]1C[C@H](N)[C@@H](O[C@H]2O[C@H](CN)[C@@H](O)[C@H](O)[C@H]2O)[C@H](O)[C@H]1O[C@H]1O[C@H](CO)[C@@H](O)[C@H](N)[C@H]1O | MDR23 | broth dilution / resazurin | MIC | - | 8 µg/mL
CCOC(=O)Nc1cc(NCC(O)CN(C)c2ccccc2)c([N+](=O)[O-])c(N)n1 | H37Rv | - | EC50 | - | <12.5 µg/mL
CN(C)c1cccc(S(=O)(=O)[O-])c1.[Na+] | H37Rv | - | MIC | - | >100 µg/mL
O=C1CS[C@H](c2ccccn2)N1CCN1C(=O)CS[C@H]1c1ccccn1 | H37Rv | BACTEC | MIC bound | - | >12.5 µg/mL
Cc1nn(-c2ccccc2N)nc1C | H37Rv | - | MIC | - | 100 µg/mL
C/C(O)=C(\C=N\C(=S)Nc1cccc(C(F)(F)F)c1)C(=O)Nc1ccccc1C | H37Rv | resazurin | inhibition | 6.25 µg/mL | -9%
COc1ccc2[nH]c(=O)c(CCCC3CCCCC3)c(O)c2c1 | H37Rv | - | MIC | - | >100 µg/mL
CCOC(=O)Nc1cc2c(c(N)n1)N=C(c1ccc([N+](=O)[O-])cc1)CO2 | H37Rv | - | EC50 | - | >12.5 µg/mL
O=C1OCC2C3C=CC(O3)C12 | H37Rv | BACTEC | MIC bound | - | >12.5 µg/mL
Cc1c(Cl)cc(S(=O)(=O)[O-])cc1Cl.[Na+] | H37Rv | - | MIC | - | >100 µg/mL
CC[C@H](CC[C@@H](C)[C@H]1CC[C@H]2[C@@H]3CC=C4C[C@@H](O[C@@H]5O[C@H](CO)[C@@H](O)[C@H](O)[C@H]5O)CC[C@]4(C)[C@H]3CC[C@]12C)C(C)C | H37Rv | BACTEC | MIC bound | - | >12.5 µg/mL
c1ccc(CCCCNCCNC2CCCCCCC2)cc1 | - | - | MIC | - | 25 µM
O/N=C(/C(=N/O)c1ccccc1)c1ccccc1 | H37Rv | - | MIC | - | >100 µg/mL

An empty or dashed field is not shown. MIC bound comes from a single tested concentration. A number after MIC or MFC names an inhibition level or a share of isolates. ECn is the concentration giving n% inhibition of infection, replication or growth. Conditions beyond the fields shown may differ between rows.